Data on 1 substance can be found in patent US8309554B2 (priority 2008, dated 2012).

Data set [1] relates to H460 non small cell lung xenograft. Description: H460 non small cell lung xenograft mouse model, tumor growth delay. To be noted: 25 mg/kg in saline, i.v. on day 1 and day 8. In kind it is in vivo.

Regarding “3-(4-(N,N-bis-(2-Chloroethyl)amino)phenoxysulfonyl-(2-(lysylamino)pyridine-5-yl-methyl))methyl-2-nitrothiophene”, the “tumor growth delay to 500 mm^3” value in data set [1] was 6 days. Moreover, in the data set “Water solubility”, the water solubility entry is given as “freely water soluble”.
